Measured values from several laboratories, pooled; numbers as filed in NIAID ChemDB.

Shared fields: target-level tests; agent: HIV; protein: Reverse transcriptase

ICn is the concentration giving n% inhibition. Fold resistance: result on the changed form divided by that on wild type. An empty or dashed field is not shown. Lines come from different laboratories, so protocols vary. Inhibition is in % at the dose shown (toxicity tests: loss of growth or viability).

{"smiles": "Nc1ncnc2c1ncn2[C@H]1CC[C@@H](COP(=O)(O)OP(=O)(O)OP(=O)(O)O)O1", "endpoint": "Ki", "result": "4 µM"}
{"smiles": "Nc1nc2c(ncn2[C@H]2CC[C@@H](COP(=O)(O)OP(=O)(O)OP(=O)(O)O)O2)c(=O)[nH]1", "changes": "RT-F116Y Q151M", "method": "nucleotide incorporation / radiometric", "endpoint": "IC50", "result": "0.071 µM"}
{"smiles": "CC(C)OC(=O)c1cc(NC(=S)OC(C)C)ccc1Cl", "changes": "K103N", "method": "radiometric", "endpoint": "IC50", "result": "45.5 µM"}
{"smiles": "Nc1nc2c(ncn2[C@H]2CC[C@@H](COP(=O)(O)OP(=O)(O)OP(=O)(O)O)O2)c(=O)[nH]1", "changes": "RT-D67N K70R T215Y K219Q", "method": "nucleotide incorporation / radiometric", "endpoint": "fold resistance", "result": "0.66"}
{"smiles": "Cc1cn([C@H]2CC[C@@H](COP(=O)(O)OP(=O)(O)OP(=O)(O)O)O2)c(=O)[nH]c1=O", "changes": "RT-L74V T215Y", "endpoint": "fold resistance", "result": "10.9"}
{"smiles": "CN(C)CCCN=C(N)c1ccc(C(N)=NCCCN(C)C)cc1", "method": "nucleotide incorporation / radiometric", "endpoint": "Ki", "result": "7.4 µM"}
{"smiles": "CCC(c1nc(N(C)C)[nH]c(=O)c1C)c1c(F)cccc1F", "changes": "K103N", "method": "nucleotide incorporation", "endpoint": "Ki", "result": ">20 µM"}
{"smiles": "S=C(Cc1ccccn1)NCc1ccccc1Cl", "changes": "Y181I", "method": "radiometric", "endpoint": "IC50", "result": ">100 µM"}
{"smiles": "Nc1nc2c(ncn2[C@H]2CC[C@@H](COP(=O)(O)OP(=O)(O)OP(=O)(O)O)O2)c(=O)[nH]1", "changes": "RT-V60T", "method": "nucleotide incorporation", "endpoint": "fold resistance", "result": "0.6"}
{"smiles": "CC(C)=CCN1Cc2cccc3[nH]c(=S)n(c23)C[C@@H]1C", "method": "nucleotide incorporation", "endpoint": "Ki", "result": "1.2 µM"}
{"smiles": "CSc1ncc(C(N)=O)c(Nc2ccc3cn[nH]c3c2)n1", "method": "ELISA", "endpoint": "inhibition", "dose": "0.1 µg/mL", "result": "48%"}
{"smiles": "CCOC(=O)c1c(C(C)C)c(C#N)c(=N)n2ccccc12", "endpoint": "inhibition", "dose": "80 µM", "result": "45%"}
{"smiles": "Nc1ccn([C@@H]2CC[C@H](COP(=O)(O)OP(=O)(O)OP(=O)(O)O)O2)c(=O)n1", "changes": "RT-Y188L", "method": "nucleotide incorporation / radiometric", "endpoint": "Ki", "result": "14 µM"}
{"smiles": "Fc1cccc(F)c1CC(=S)Nc1ccc(Cl)cn1", "changes": "K103N", "method": "radiometric", "endpoint": "IC50", "result": ">100 µM"}
{"smiles": "Nc1ccn([C@H]2CC[C@@H](COP(=O)(O)OP(=O)(O)OP(=O)(O)OP(=O)(O)OC[C@@H]3CC[C@H](n4ccc(N)nc4=O)O3)O2)c(=O)n1", "changes": "RT-D67N K70R T215Y K219Q", "method": "nucleotide incorporation / radiometric", "endpoint": "fold resistance", "result": "0.08"}
{"smiles": "Cc1cc(Cc2ccc(Cl)c(Oc3cc(C#N)cc(C#N)c3)c2F)n[nH]c1=O", "changes": "K103N L100I", "endpoint": "IC50", "result": "0.007 µM"}
{"smiles": "Nc1ncnc2c1ncn2[C@H]1CC[C@@H](COP(=O)(O)OP(=O)(O)OP(=O)(O)OP(=O)(O)OC[C@@H]2CC[C@H](n3cnc4c(N)ncnc43)O2)O1", "changes": "RT-W88G", "method": "nucleotide incorporation / radiometric", "endpoint": "fold resistance", "result": ">2.3"}
{"smiles": "Nc1nc2c(ncn2[C@H]2CO[C@@H](COP(=O)(O)OP(=O)(O)OP(=O)(O)O)O2)c(=O)[nH]1", "changes": "RT-L74V", "method": "radiometric", "endpoint": "fold resistance", "result": "1.1"}
{"smiles": "Nc1nc2c(ncn2[C@H]2CC[C@@H](COP(=O)(O)OP(=O)(O)OP(=O)(O)OP(=O)(O)OC[C@@H]3CC[C@H](n4cnc5c(=O)[nH]c(N)nc54)O3)O2)c(=O)[nH]1", "changes": "RT-M41L T215Y", "method": "nucleotide incorporation / radiometric", "endpoint": "fold resistance", "result": "0.217"}
{"smiles": "S=C(Cc1ccccn1)NCCc1ccccc1", "changes": "L100I", "method": "radiometric", "endpoint": "IC50", "result": ">100 µM"}

3 of the rows above, restated:

| smiles | changes | method | endpoint | dose | result |
|---|---|---|---|---|---|
| CN(C)CCCN=C(N)c1ccc(C(N)=NCCCN(C)C)cc1 | - | nucleotide incorporation / radiometric | Ki | - | 7.4 µM |
| S=C(Cc1ccccn1)NCCc1ccccc1 | L100I | radiometric | IC50 | - | >100 µM |
| Nc1nc2c(ncn2[C@H]2CC[C@@H](COP(=O)(O)OP(=O)(O)OP(=O)(O)O)O2)c(=O)[nH]1 | RT-D67N K70R T215Y K219Q | nucleotide incorporation / radiometric | fold resistance | - | 0.66 |